A mixed list of measured activities; the numbers were collected in NIAID ChemDB.

Common to all: target-level tests

Blank or dashed fields: not listed here. ICn is the concentration giving n% inhibition. Rows are shuffled and stem from different studies. Fold resistance has wild type as its base. Inhibition is in % at the dose shown (toxicity tests: loss of growth or viability).

compound	read-out	tested at	protein	changes	strain	method	agent	value
O=C(c1ccccc1)N1C[C@H](CN2CCC(c3ccccc3)CC2)[C@@H](c2ccccc2)C1	fold resistance		CCR5	CCR5-E283A		radiometric		>1000
Cc1c[nH]c(=S)[nH]c1=O	IC50		Uracil phosphoribosyltransferase		RH		Toxoplasma gondii	>2000 µM
Nc1nc2c(ncn2[C@H]2CC[C@@H](COP(=O)(O)OP(=O)(O)OP(=O)(O)O)O2)c(=O)[nH]1	IC50		Reverse transcriptase	RT-N137D		nucleotide incorporation / radiometric	HIV	0.13 µM
O=C(Nc1nnc(NCc2ccc(F)cc2)s1)c1cc(F)cc(F)c1	IC50		Polymerase				Human cytomegalovirus	>25 µM
O=c1cccc(O)[nH]1	Ki		Uracil phosphoribosyltransferase		RH		Toxoplasma gondii	200 µM
CCN(C(=O)OCc1ccccc1)C1CCN(CC[C@](C)(CN(C)S(=O)(=O)c2ccccc2)c2ccccc2)CC1	IC50		CCR5	CCR5-E283A		radiometric		>1 µM
O=C(CN1C(=O)SC(=Cc2cc(C(F)(F)F)ccc2C(F)(F)F)C1=O)N1CCN(c2ccccc2)CC1	IC50		Falcipain-2			fluorescence	Plasmodium falciparum	35.28 µM
Cc1cc(SC2=C(O)C[C@@](CCc3ccc(O)cc3)(C(C)C)OC2=O)c(C(C)(C)C)cc1CO	inhibition	100 µM	Cytochrome P450 2C9					50%
CC[C@H]1C(=O)Nc2ccc(F)cc2N1C(=O)OC(C)C	fold resistance		Reverse transcriptase	RT-N137D		nucleotide incorporation / radiometric	HIV	1
O=C(O)C(Cl)P(=O)(O)O	inhibition	100 µM	DNA polymerase				Epstein-Barr virus	66%
COc1cnccn1	IC50		Uracil phosphoribosyltransferase		RH		Toxoplasma gondii	>2000 µM
O=C(O)C(Cl)(Br)P(=O)(O)O	IC50		DNA polymerase				Epstein-Barr virus	>100 µM
Cc1cn([C@@H]2O[C@H](CO[Si](C)(C)C(C)(C)C)[C@@]3(OS(=O)(=O)C=C3N)[C@H]2O[Si](C)(C)C(C)(C)C)c(=O)[nH]c1=O	fold resistance		Reverse transcriptase	RT-N137E		nucleotide incorporation / radiometric	HIV	1.3
O=P(O)(O)C(F)(Cl)P(=O)(O)O	IC50		DNA polymerase				Herpes simplex virus 2	>100 µM
Nc1nccc(=O)[nH]1	IC50		Uracil phosphoribosyltransferase		RH		Toxoplasma gondii	>2000 µM
CC(F)(C(=O)O)P(=O)(O)O	IC50		DNA polymerase				Epstein-Barr virus	>100 µM
O=C(O)c1c[nH]c(=O)[nH]c1=O	inhibition	2000 µM	Uracil phosphoribosyltransferase		RH		Toxoplasma gondii	<5%
O=C(O)CP(=O)(O)O	IC50		DNA polymerase				Herpes simplex virus 2	1.2 µM
COc1cc(OC)c(C=C2SC(=O)N(CC(=O)N3CCN(c4ccccc4Cl)CC3)C2=O)c(OC)c1	IC50		Falcipain-2			fluorescence	Plasmodium falciparum	12.64 µM
Nc1cnccn1	IC50		Uracil phosphoribosyltransferase		RH		Toxoplasma gondii	>2000 µM
O=C(O)C(F)P(=O)(O)O	IC50		DNA polymerase				Herpes simplex virus 2	3.8 µM
Cc1[nH]c(=O)[nH]c(=O)c1[N+](=O)[O-]	inhibition	2000 µM	Uracil phosphoribosyltransferase		RH		Toxoplasma gondii	<10%
CCCCCCCC/C=C/CCCCCCCC(=O)Nc1nnc(NCCc2ccccc2)s1	IC50		Polymerase				Human cytomegalovirus	<25 µM
CC(C)C(=O)N1C[C@H](CN2CCC(c3ccccc3)CC2)[C@@H](c2ccccc2)C1	fold resistance		CCR5	CCR5-Y108A		radiometric		26.7
CO[P@](=O)(c1cc(C)cc(/C=C/C#N)c1)c1c(C(N)=O)[nH]c2ccc(Cl)c(F)c12	IC50		Reverse transcriptase	V108I			HIV	1.2 µM
O=c1[nH]cc([N+](=O)[O-])c(=O)[nH]1	IC50		Uracil phosphoribosyltransferase		RH		Toxoplasma gondii	>2000 µM
O=C(O)C(Cl)(Cl)P(=O)(O)O	IC50		DNA polymerase				Epstein-Barr virus	>100 µM
O=C(/C=C/c1ccccc1Cl)Nc1nnc(NCc2ccco2)s1	IC50		Polymerase				Human cytomegalovirus	>25 µM
O=C(O)C(Br)P(=O)(O)O	inhibition	100 µM	DNA polymerase				Herpes simplex virus 1	87%
O=C(Nc1nnc(NCC2CCCCC2)s1)c1ccc(Cl)c(Cl)c1	IC50		Polymerase				Human cytomegalovirus	>25 µM
COc1cccc(C=C2SC(=O)N(CC(=O)N3CCN(c4ccccc4)CC3)C2=O)c1	IC50		Falcipain-2			fluorescence	Plasmodium falciparum	>50 µM
CCOc1ccc2ccccc2c1C(=O)Nc1nnc(NCC2CCCCC2)s1	IC50		Polymerase				Human cytomegalovirus	>25 µM
O=C(CN1C(=O)SC(=Cc2ccccc2Br)C1=O)N1CCN(c2ccccc2)CC1	IC50		Falcipain-2			fluorescence	Plasmodium falciparum	23.88 µM
Cl.O=c1nccc[nH]1	inhibition	2000 µM	Uracil phosphoribosyltransferase		RH		Toxoplasma gondii	<10%